Assay results published in article PMC10303200 (ACS Central Science, 2023).

Biological target: RCA-I (Ricinus communis, UniProt P06750)
Conditions: read-out: Kd (ITC)

[β-D-GlcNAc-(1→2)-α-D-Man-(1→3)]-[β-D-GlcNAc-(1→2)-α-D-Man-(1→6)]-β-D-Man(1→4)-β-D-GlcNAc-(1→4)-D-GlcNAc [Glycan G34]
Kd: 1.7 ± 0.8 µM
